Results taken from patent US20140106982A1.

Each substance was assayed against mouse monoclonal antibody FB 11 (assay: VLP library affinity selection on FB 11, 12 clones sequenced).

Substance | copies among sequenced affinity-selected clones
DYMPDTGG (peptide) | 1 copy
GACLKHT (peptide) | 1 copy
GACLRHT (peptide) | 7 copies
QGDHLQ (peptide) | 1 copy
RRSPGLP (peptide) | 1 copy
… (peptide) | 1 copy
